System: mouse embryonic fibroblasts (MEFs)
Assay: MEF-to-iMN reprogramming, quantification of conversion yield
Format: cell-based
Settings: 6FDDRR, 1 μg/mL from 3-7 dpi, 14 dpi (FIG. 9O)

α-amanitin
reprogramming (yield of iMNs): significantly impaired
